Construct, isoform or probe ends are uncertain for at least one entry. Where a protein sequence is shown, tags need not be part of it.
Target: T1, SpNanR (Streptococcus pneumoniae) (UniProt A0A0H2ZPE9)
T1 sequence (looked up): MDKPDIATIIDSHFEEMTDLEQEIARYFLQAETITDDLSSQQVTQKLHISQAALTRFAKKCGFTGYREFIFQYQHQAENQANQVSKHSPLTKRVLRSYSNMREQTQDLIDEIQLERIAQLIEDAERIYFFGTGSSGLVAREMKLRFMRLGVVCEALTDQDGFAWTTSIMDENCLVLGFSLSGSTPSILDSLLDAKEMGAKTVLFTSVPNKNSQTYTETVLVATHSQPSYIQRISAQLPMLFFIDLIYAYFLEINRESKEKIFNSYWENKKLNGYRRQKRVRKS
Test: fluorescence-detection AUC (sedimentation velocity)
Details: 2 mM ManNAc-6-P, Hill n 2.0; AUC: 50 nM FAM-DNA, 0.019-5 uM SpNanR; recombinant protein; residues 1-283; label: 5'-FAM on sense strand

TCTGAAAGTACTTTTAGA (double strand) [nanE recognition sequence (site 2), FAM]
Kd: 549 nM

From PMC13635753, “Mechanism of NanR transcriptional activation of sialic acid metabolism in Streptococcus pneumoniae” (Nucleic Acids Research, 2025)
